Reference: patent US20230405106A1

Target: chimeric ACE2-mFc protein (UniProt Q9BYF1)

Substance: hybrid HBcAg-CRBDH6-H nanoparticles (from UniProt P0DTC2 328-533; P03146 1-183)
- Kd: 29.4 pM
